The assay addresses SARS2 protease (Severe acute respiratory syndrome coronavirus 2, UniProt P0DTD1). Briefly: SARS-CoV-2 protease inhibition assay (SARS2 FRET protease assay). To be noted: SARS2 protease 30 nM, peptide substrate 1.3 μM, 120 minutes at 37° C., compounds 20 μM to 0.075 nM. On the procedure: Viral protease assays: The antiviral activities of inhibitors were determined by FRET (Fluorescence Resonance Energy Transfer) assay. Purified viral protease was incubated with the protease substrate peptide (Edans-DFHLQ/GP-Dabcyl) and inhibitor, and IC50 values were subsequently determined by the fluorescence signals.
The SARS2 FRET protease assay was performed in 20 mM HEPES-Na pH 7, 120 mM NaCl, 0.4 mM EDTA, 0.01% Triton, 5% glycerol, and 4 mM DTT. A self-quenching peptide substrate 5-FAM-TSA VLQ SGF RKK (STAMRA)-NH2 was custom synthesized by Anaspec. Compounds were diluted in 4-fold serial dilutions to final concentrations of 20 μM to 0.075 nM. SARS2 protease was added to a final concentration of 30 nM, depending on the enzyme activity level, and the peptide substrate was added to a final concentration of 1.3 μM. The assay was incubated 120 minutes at 37° C. and read in a Perkin Elmer Envision with excitation at 492 nm and emission measurement at 518 nm.

Each structure is given as a SMILES string. The structures given here were assigned with low confidence; some may be wrong.

For one compound, IC50 results are on record in US20240398757A1 (COCRYSTAL PHARMA, INC., priority 2022, published 2024).

A word on the IC50: it is the point on the concentration scale where inhibition reaches its midpoint. Read a low IC50 as greater potency.

For `CCCC[C@H](NC(=O)OC(c1cccnc1)C(F)(F)c1cccc(Cl)c1)C(=O)N[C@H](C=O)C[C@@H]1CCNC1=O` (stereo partly shown), the IC50 came out at 0.4 nM.
